From publication PMC10436556

Experiments:
Test in all cases: EMSA
[1] = target: OGG1 in NE of RSV-infected hSAECs (Homo sapiens (hSAEC)) (UniProt O15527); details: WCL/NE: 10 mM Tris-HCl pH 7.5, 1 mM EDTA, 50 mM NaCl, 2 mM DTT, 5% glycerol, 0.5% NP-40, BSA, poly(I:C), RT 20 min, His-IRF3: 10 mM Tris pH 7.5, 50 mM KCl, 1 mM DTT, protein in an extract
[2] = target: T1, IRF3 in NE of RSV-infected hSAECs (Homo sapiens (hSAEC)) (UniProt Q14653); details: WCL/NE: 10 mM Tris-HCl pH 7.5, 1 mM EDTA, 50 mM NaCl, 2 mM DTT, 5% glycerol, 0.5% NP-40, BSA, poly(I:C), RT 20 min, His-IRF3: 10 mM Tris pH 7.5, 50 mM KCl, 1 mM DTT, protein in an extract
T1 sequence (looked up, limits assumed): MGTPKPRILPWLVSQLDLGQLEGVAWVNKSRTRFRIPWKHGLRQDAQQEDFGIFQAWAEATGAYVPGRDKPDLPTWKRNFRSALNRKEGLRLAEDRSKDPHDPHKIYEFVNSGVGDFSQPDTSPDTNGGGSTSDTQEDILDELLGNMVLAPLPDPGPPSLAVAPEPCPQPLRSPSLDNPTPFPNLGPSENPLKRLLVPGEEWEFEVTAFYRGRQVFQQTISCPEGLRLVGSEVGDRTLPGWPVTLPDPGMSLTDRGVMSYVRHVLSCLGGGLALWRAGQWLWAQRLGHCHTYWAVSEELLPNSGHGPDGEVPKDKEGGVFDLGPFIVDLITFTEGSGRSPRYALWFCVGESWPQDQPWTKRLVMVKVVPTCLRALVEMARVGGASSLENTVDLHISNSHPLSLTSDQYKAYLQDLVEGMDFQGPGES

[3] = target: T2, NF-kB1/p50 in NE of RSV-infected hSAECs (Homo sapiens (hSAEC)) (UniProt P19838); details: WCL/NE: 10 mM Tris-HCl pH 7.5, 1 mM EDTA, 50 mM NaCl, 2 mM DTT, 5% glycerol, 0.5% NP-40, BSA, poly(I:C), RT 20 min, His-IRF3: 10 mM Tris pH 7.5, 50 mM KCl, 1 mM DTT, protein in an extract
T2 sequence (looked up, limits assumed): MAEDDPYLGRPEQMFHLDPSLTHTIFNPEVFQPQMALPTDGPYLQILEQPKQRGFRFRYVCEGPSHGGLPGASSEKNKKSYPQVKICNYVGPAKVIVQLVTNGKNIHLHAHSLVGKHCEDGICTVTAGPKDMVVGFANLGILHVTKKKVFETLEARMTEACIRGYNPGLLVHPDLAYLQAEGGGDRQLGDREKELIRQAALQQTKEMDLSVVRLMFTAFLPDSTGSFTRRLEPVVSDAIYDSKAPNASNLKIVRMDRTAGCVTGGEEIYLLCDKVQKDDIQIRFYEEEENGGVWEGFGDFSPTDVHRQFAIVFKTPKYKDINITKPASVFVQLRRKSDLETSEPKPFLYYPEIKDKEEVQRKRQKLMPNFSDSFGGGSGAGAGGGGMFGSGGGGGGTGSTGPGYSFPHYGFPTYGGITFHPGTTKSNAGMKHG

[4] = system: NF-kB1/p50 in NE of RSV-infected hSAECs + RelA/p65 in NE of RSV-infected hSAECs; details: WCL/NE: 10 mM Tris-HCl pH 7.5, 1 mM EDTA, 50 mM NaCl, 2 mM DTT, 5% glycerol, 0.5% NP-40, BSA, poly(I:C), RT 20 min, His-IRF3: 10 mM Tris pH 7.5, 50 mM KCl, 1 mM DTT, protein in an extract
[5] = system: OGG1 (recombinant, ProSpec ENZ-253) + IRF3 in NE of RSV-infected hSAECs; details: rOGG1 added to NE, WCL/NE: 10 mM Tris-HCl pH 7.5, 1 mM EDTA, 50 mM NaCl, 2 mM DTT, 5% glycerol, 0.5% NP-40, BSA, poly(I:C), RT 20 min, His-IRF3: 10 mM Tris pH 7.5, 50 mM KCl, 1 mM DTT, commercial protein, letters put together from the description

“CTGTGTTTTCACTTTTCCTACATCAGCTGGGACTGCCCTTCTGTCAGGGATAA (double strand) [Pr0]”: no binding ([1]; NE of RSV-infected hSAECs, Wt probe); binds ([2]; NE of RSV-infected OGG1 KO hSAECs, rOGG1 had no effect); binds ([3]; RelA-depleted NE, p50-p50). “CTGTGTTTTCACTTTTCCTACATCAGCTGGGACTGCCCTTCTGTCAGGGATAA (double strand) [Pr0]”: binds ([4]; p50-p65 heterodimer).
“CTGTGTTTTCACTTTTCCTACATCAGCTGGGACTGCCCTTCTGTCAGGGATAA (double strand) [Pr1]”: binds ([5]; additional IRF-OGG1 complexes, 8-oxoG at top position 29); binds ([2]; similar to Pr0, 8-oxoG at top position 29, letters put together from the description); binds more weakly ([2]; with rOGG1, IRF-DNA complex decreases with OGG1 concentration, 8-oxoG at top position 29, letters put together from the description). “CTGTGTTTTCACTTTTCCTACATCAGCTGGGACTGCCCTTCTGTCAGGGATAA (double strand) [Pr1]”: binds ([3]; p50-p50, 8-oxoG at top position 29, letters put together from the description).
“CTGTGTTTTCACTTTTCCTACATCAGCTGGGACTGCCCTTCTGTCAGGGATAA (double strand) [Pr1a]”: binds ([2]; similar to Pr0, 8-oxoG in bottom strand, within IRE (printed position 10 from its 3' end; opposite top C10), letters put together from the description).
“CTGTGTTTTCACTTTTCCTACATCAGCTGGGACTGCCCTTCTGTCAGGGATAA (double strand) [Pr2]”: binds ([5]; higher shift, 8-oxoG at top position 48); binds ([1]; NE of RSV-infected hSAECs, early time points, 8-oxoG at top position 48, letters put together from the description); binds more weakly ([1]; late infection, O-GlcNAcylated OGG1 unable to bind, 8-oxoG at top position 48, letters put together from the description). “CTGTGTTTTCACTTTTCCTACATCAGCTGGGACTGCCCTTCTGTCAGGGATAA (double strand) [Pr2]”: binds more weakly ([2]; with rOGG1, IRF-DNA complex decreases with OGG1 concentration, 8-oxoG at top position 48, letters put together from the description); binds ([2]; without OGG1, 8-oxoG at top position 48, letters put together from the description); binds ([3]; RelA-depleted NE, p50-p50, 8-oxoG at top position 48, letters put together from the description). “CTGTGTTTTCACTTTTCCTACATCAGCTGGGACTGCCCTTCTGTCAGGGATAA (double strand) [Pr2]”: binds ([3]; with rOGG1, p50-p50 complex, 8-oxoG at top position 48, letters put together from the description); binds ([4]; p50-p65 heterodimer, 8-oxoG at top position 48, letters put together from the description); binds more weakly ([4]; with rOGG1, drastic diminution, 8-oxoG at top position 48, letters put together from the description).
“CTGTGTTTTCACTTTTCCTACATCAGCTTGGACTGCCCTTCTGTCATGGATAA / TTATCACTGACAGAAGGTCAGTCCCAGCTGATGTAGGAAAAGTGAAAACACAG [Pr4]”: no binding ([3]; p50-p50).
“CTGTGTTTTCACTTTTCCTACATCAGCTTGGACTGCCCTTCTGTCATGGATAA / TTATCCCTGACAGAAGGGCAGTCCCAGCTGATGTAGGAAAAGTGAAAACACAG [Pr3]”: binds ([3]; p50-p50, 8-oxoG at bottom position 18 from 5' end).

At least one result comes from cells or an extract, where the contact may be indirect. For some assays here: A negative result means that nothing was seen under these conditions. For some assays here: Where a protein sequence is shown, tags need not be part of it. The exact form of at least one protein or probe is not confirmed. For some assays here: At least one verdict was read from the data and is not stated in words by the source. For some assays here: Weaker means in comparison with the reference protein, sequence or condition of that experiment.
